Data taken from patent publication US8293489B2, “Methods for detection of biological substances” (priority 2007, dated 2012).

Test system: BDNF
Experiment: BDNF in plasma, urine, saliva and nasal mucus
Set-up: species or system human

B1: BDNF (protein, UniProt P23560 19-247, looked up)
Neurotrophic factor BDNF …: APMKEANIRGQGGLAYPGVRTHGTLESVNGPKAGSRGLTSLADTFEHVIEELLDEDQKVRPNEENNKDADLYTSRVMLSSQVPLEPPLLFLLEEYKNYLDAANMSMRVRRHSDPARRGELSVCDSISEWVTAADKKTAVDMSGGTVTVLEKVPVSKGQLKQYFYETKCNPMGYTKEGCRGIDKRHWNSQCRTTQSYVRALTMDSKKRIGWRFIRIDTSCVCTLTIKRGR
- BDNF (NASAL MUCUS): 11 ± 7 µg/mL
- BDNF/PROTEIN (NASAL MUCUS): 8 ± 6
- BDNF/PROTEIN (PLASMA): 447 ± 74
- BDNF (PLASMA, (20) subjects): 3391 ± 530 µg/mL
- BDNF (SALIVA): 0 µg/mL
- BDNF (URINE): 0 µg/mL
